Results from paper PMC4295349, “Synthetic Antimicrobial Peptides Exhibit Two Different Binding Mechanisms to the Lipopolysaccharides Isolated from Pseudomonas aeruginosa and Klebsiella pneumoniae” (International Journal of Medicinal Chemistry, 2014).

Tests used:
[1] = tested on: LPS isolated from P. aeruginosa; assay: Far-UV circular dichroism of AMP with LPS SUVs; set-up: species or system Pseudomonas aeruginosa; conditions: 40 mM sodium phosphate pH 6.8, 350 μL LPS stock + 50 μL peptide stock, 298 K, 260-195 nm, LPS background subtracted
[2] = tested on: LPS isolated from K. pneumoniae; assay: Far-UV circular dichroism of AMP with LPS SUVs; set-up: species or system Klebsiella pneumoniae; conditions: 40 mM sodium phosphate pH 6.8, 350 μL LPS stock + 50 μL peptide stock, 298 K, 260-195 nm, LPS background subtracted

Compound	type of CD spectrum [1]	type of CD spectrum [2]
CC(C)C[C@H](NC(=O)[C@@H](N)CCCCN)C(=O)N1Cc2ccccc2C[C@H]1C(=O)N1C2CCCCC2C[C@H]1C(=O)N[C@@H](CCCCN)C(=O)NCC(=O)N1Cc2ccccc2C[C@H]1C(=O)N1C2CCCCC2C[C@H]1C(=O)N[C@@H](Cc1ccccc1)C(=O)N1Cc2ccccc2C[C@H]1C(=O)N1C2CCCCC2C[C@H]1C(=O)N[C@@H](CCCCN)C(=O)NCC(=O)N1Cc2ccccc2C[C@H]1C(=O)N1C2CCCCC2C[C@H]1C(=O)N[C@@H](Cc1ccccc1)C(=O)N1Cc2ccccc2C[C@H]1C(=O)N1C2CCCCC2C[C@H]1C(=O)N[C@@H](CCCCN)C(=O)NCC(=O)N1Cc2ccccc2C[C@H]1C(=O)N1C2CCCCC2C[C@H]1C(=O)N[C@@H](CCCCN)C(=O)N[C@@H](CCCCN)C(=O)N[C@@H](CCCCN)C(=O)N[C@@H](CCCCN)C(N)=O (stereo partly drawn) [AMP 78] (H-KL[Tic][Oic(3aξ,7aξ)]KG[Tic][Oic(3aξ,7aξ)]F[Tic][Oic(3aξ,7aξ)]KG[Tic][Oic(3aξ,7aξ)]F[Tic][Oic(3aξ,7aξ)]KG[Tic][Oic(3aξ,7aξ)]KKKK-NH2)	only negative absorptions	only negative absorptions
CC(C)C[C@H](NC(=O)[C@@H](N)CCCCN)C(=O)N1Cc2ccccc2C[C@H]1C(=O)N1C2CCCCC2C[C@H]1C(=O)NCC(=O)N[C@@H](CCCCN)C(=O)N1Cc2ccccc2C[C@H]1C(=O)N1C2CCCCC2C[C@H]1C(=O)NCC(=O)N[C@@H](Cc1ccccc1)C(=O)N1Cc2ccccc2C[C@H]1C(=O)N1C2CCCCC2C[C@H]1C(=O)NCC(=O)N[C@@H](CCCCN)C(=O)N1Cc2ccccc2C[C@H]1C(=O)N1C2CCCCC2C[C@H]1C(=O)NCC(=O)N[C@@H](Cc1ccccc1)C(=O)N1Cc2ccccc2C[C@H]1C(=O)N1C2CCCCC2C[C@H]1C(=O)NCC(=O)N[C@@H](CCCCN)C(=O)N1Cc2ccccc2C[C@H]1C(=O)N1C2CCCCC2C[C@H]1C(=O)N[C@@H](CCCCN)C(=O)N[C@@H](CCCCN)C(=O)N[C@@H](CCCCN)C(=O)N[C@@H](CCCCN)C(N)=O (stereo partly drawn) [AMP 76] (H-KL[Tic][Oic(3aξ,7aξ)]GK[Tic][Oic(3aξ,7aξ)]GF[Tic][Oic(3aξ,7aξ)]GK[Tic][Oic(3aξ,7aξ)]GF[Tic][Oic(3aξ,7aξ)]GK[Tic][Oic(3aξ,7aξ)]KKKK-NH2)	only negative absorptions	only negative absorptions
CC(C)C[C@H](NC(=O)[C@@H](N)CCCCN)C(=O)N1Cc2ccccc2C[C@H]1C(=O)N1C2CCCCC2C[C@H]1C(=O)N[C@@H](CCCCN)C(=O)NCC(=O)N1Cc2ccccc2C[C@H]1C(=O)N1C2CCCCC2C[C@H]1C(=O)N[C@@H](Cc1ccccc1)C(=O)NCC(=O)N1Cc2ccccc2C[C@H]1C(=O)N1C2CCCCC2C[C@H]1C(=O)N[C@@H](CCCCN)C(=O)NCC(=O)N1Cc2ccccc2C[C@H]1C(=O)N1C2CCCCC2C[C@H]1C(=O)N[C@@H](Cc1ccccc1)C(=O)NCC(=O)N1Cc2ccccc2C[C@H]1C(=O)N1C2CCCCC2C[C@H]1C(=O)N[C@@H](CCCCN)C(=O)NCC(=O)N1Cc2ccccc2C[C@H]1C(=O)N1C2CCCCC2C[C@H]1C(=O)N[C@@H](CCCCN)C(=O)N[C@@H](CCCCN)C(=O)N[C@@H](CCCCN)C(=O)N[C@@H](CCCCN)C(N)=O (stereo partly drawn) [AMP 79] (H-KL[Tic][Oic(3aξ,7aξ)]KG[Tic][Oic(3aξ,7aξ)]FG[Tic][Oic(3aξ,7aξ)]KG[Tic][Oic(3aξ,7aξ)]FG[Tic][Oic(3aξ,7aξ)]KG[Tic][Oic(3aξ,7aξ)]KKKK-NH2)	only negative absorptions	only negative absorptions
CC(=O)N[C@@H](CCCCN)C(=O)N[C@@H](CC(C)C)C(=O)N1Cc2ccccc2C[C@H]1C(=O)N1[C@H](C(=O)N[C@@H](CCCCN)C(=O)N2Cc3ccccc3C[C@H]2C(=O)N2[C@H](C(=O)N[C@@H](Cc3ccccc3)C(=O)N3Cc4ccccc4C[C@H]3C(=O)N3[C@H](C(=O)N[C@@H](CCCCN)C(=O)N4Cc5ccccc5C[C@H]4C(=O)N4[C@H](C(=O)N[C@@H](Cc5ccccc5)C(=O)N5Cc6ccccc6C[C@H]5C(=O)N5[C@H](C(=O)N[C@@H](CCCCN)C(=O)N6Cc7ccccc7C[C@H]6C(=O)N6[C@H](C(=O)N[C@@H](CCCCN)C(=O)N[C@@H](CCCCN)C(=O)N[C@@H](CCCCN)C(=O)N[C@@H](CCCCN)C(N)=O)C[C@@H]7CCCC[C@@H]76)C[C@@H]6CCCC[C@@H]65)C[C@@H]5CCCC[C@@H]54)C[C@@H]4CCCC[C@@H]43)C[C@@H]3CCCC[C@@H]32)C[C@@H]2CCCC[C@@H]21 [AMP 70] (Ac-KL[Tic][Oic]K[Tic][Oic]F[Tic][Oic]K[Tic][Oic]F[Tic][Oic]K[Tic][Oic]KKKK-NH2)	helical-like features	helical-like features
CC(C)C[C@H](NC(=O)[C@@H](N)CCCCN)C(=O)N1Cc2ccccc2C[C@H]1C(=O)N1[C@H](C(=O)N[C@@H](CCCCN)C(=O)N2Cc3ccccc3C[C@H]2C(=O)N2[C@H](C(=O)N[C@@H](Cc3ccccc3)C(=O)NCC(=O)N3Cc4ccccc4C[C@H]3C(=O)N3[C@H](C(=O)N[C@@H](CCCCN)C(=O)N4Cc5ccccc5C[C@H]4C(=O)N4[C@H](C(=O)N[C@@H](Cc5ccccc5)C(=O)NCC(=O)N5Cc6ccccc6C[C@H]5C(=O)N5[C@H](C(=O)N[C@@H](CCCCN)C(=O)N6Cc7ccccc7C[C@H]6C(=O)N6[C@H](C(=O)N[C@@H](CCCCN)C(=O)N[C@@H](CCCCN)C(=O)N[C@@H](CCCCN)C(=O)N[C@@H](CCCCN)C(N)=O)C[C@@H]7CCCC[C@@H]76)C[C@@H]6CCCC[C@@H]65)C[C@@H]5CCCC[C@@H]54)C[C@@H]4CCCC[C@@H]43)C[C@@H]3CCCC[C@@H]32)C[C@@H]2CCCC[C@@H]21 [AMP 77] (H-KL[Tic][Oic]K[Tic][Oic]FG[Tic][Oic]K[Tic][Oic]FG[Tic][Oic]K[Tic][Oic]KKKK-NH2)	helical-like features	helical-like features
H2N-KL-Tic-Oic-GK-Tic-Oic-F-Tic-Oic-GK-Tic-Oic-F-Tic-Oic-GK-Tic-Oic-KKKK-CONH2 [AMP 74, synthetic antimicrobial peptide containing six Tic-Oic dipeptide units, residue A Gly]	helical-like features	falls into the latter type
CC(C)C[C@H](NC(=O)[C@@H](N)CCCCN)C(=O)N1Cc2ccccc2C[C@H]1C(=O)N1C2CCCCC2C[C@H]1C(=O)NCC(=O)N[C@@H](CCCCN)C(=O)N1Cc2ccccc2C[C@H]1C(=O)N1C2CCCCC2C[C@H]1C(=O)NCCC(=O)N[C@@H](Cc1ccccc1)C(=O)N1Cc2ccccc2C[C@H]1C(=O)N1C2CCCCC2C[C@H]1C(=O)NCC(=O)N[C@@H](CCCCN)C(=O)N1Cc2ccccc2C[C@H]1C(=O)N1C2CCCCC2C[C@H]1C(=O)NCCC(=O)N[C@@H](Cc1ccccc1)C(=O)N1Cc2ccccc2C[C@H]1C(=O)N1C2CCCCC2C[C@H]1C(=O)NCC(=O)N[C@@H](CCCCN)C(=O)N1Cc2ccccc2C[C@H]1C(=O)N1C2CCCCC2C[C@H]1C(=O)N[C@@H](CCCCN)C(=O)N[C@@H](CCCCN)C(=O)N[C@@H](CCCCN)C(=O)N[C@@H](CCCCN)C(N)=O (stereo partly drawn) [AMP 80] (H-KL[Tic][Oic(3aξ,7aξ)]GK[Tic][Oic(3aξ,7aξ)][βAla]F[Tic][Oic(3aξ,7aξ)]GK[Tic][Oic(3aξ,7aξ)][βAla]F[Tic][Oic(3aξ,7aξ)]GK[Tic][Oic(3aξ,7aξ)]KKKK-NH2)	only negative absorptions	only negative absorptions
CC(C)C[C@H](NC(=O)[C@@H](N)CCCCN)C(=O)N1Cc2ccccc2C[C@H]1C(=O)N1[C@H](C(=O)N[C@@H](CCCCN)C(=O)N2Cc3ccccc3C[C@H]2C(=O)N2[C@H](C(=O)N[C@@H](Cc3ccccc3)C(=O)N3Cc4ccccc4C[C@H]3C(=O)N3[C@H](C(=O)N[C@@H](CCCCN)C(=O)N4Cc5ccccc5C[C@H]4C(=O)N4[C@H](C(=O)N[C@@H](Cc5ccccc5)C(=O)N5Cc6ccccc6C[C@H]5C(=O)N5[C@H](C(=O)N[C@@H](CCCCN)C(=O)N6Cc7ccccc7C[C@H]6C(=O)N6[C@H](C(=O)N[C@@H](CCCCN)C(=O)N[C@@H](CCCNC(=N)N)C(N)=O)C[C@@H]7CCCC[C@@H]76)C[C@@H]6CCCC[C@@H]65)C[C@@H]5CCCC[C@@H]54)C[C@@H]4CCCC[C@@H]43)C[C@@H]3CCCC[C@@H]32)C[C@@H]2CCCC[C@@H]21 [AMP 22] (H-KL[Tic][Oic]K[Tic][Oic]F[Tic][Oic]K[Tic][Oic]F[Tic][Oic]K[Tic][Oic]KR-NH2)	helical-like features	helical-like features
CC(C)C[C@H](NC(=O)[C@@H](N)CCCCN)C(=O)N1Cc2ccccc2C[C@H]1C(=O)N1[C@H](C(=O)N[C@@H](CCCCN)C(=O)N2Cc3ccccc3C[C@H]2C(=O)N2[C@H](C(=O)NCC(=O)N[C@@H](Cc3ccccc3)C(=O)N3Cc4ccccc4C[C@H]3C(=O)N3[C@H](C(=O)N[C@@H](CCCCN)C(=O)N4Cc5ccccc5C[C@H]4C(=O)N4[C@H](C(=O)NCC(=O)N[C@@H](Cc5ccccc5)C(=O)N5Cc6ccccc6C[C@H]5C(=O)N5[C@H](C(=O)N[C@@H](CCCCN)C(=O)N6Cc7ccccc7C[C@H]6C(=O)N6[C@H](C(=O)N[C@@H](CCCCN)C(=O)N[C@@H](CCCCN)C(=O)N[C@@H](CCCCN)C(=O)N[C@@H](CCCCN)C(N)=O)C[C@@H]7CCCC[C@@H]76)C[C@@H]6CCCC[C@@H]65)C[C@@H]5CCCC[C@@H]54)C[C@@H]4CCCC[C@@H]43)C[C@@H]3CCCC[C@@H]32)C[C@@H]2CCCC[C@@H]21 [AMP 75] (H-KL[Tic][Oic]K[Tic][Oic]GF[Tic][Oic]K[Tic][Oic]GF[Tic][Oic]K[Tic][Oic]KKKK-NH2)	helical-like features	helical-like features

Some compounds share one wording; it may come from a single statement. Where a SMILES comes first, the peptide text is derived from it. [ ]: non-standard residue; d: D form. ξ: configuration not given here. Oic = O=C(O)[C@@H]1C[C@@H]2CCCC[C@@H]2N1; Oic(3aξ,7aξ) = O=C(O)[C@@H]1CC2CCCCC2N1; Tic = O=C(O)[C@@H]1Cc2ccccc2CN1; βAla = NCCC(=O)O
